{"source": "paper PMC5318444", "target": "T1, FNR D154A tandem dimer, His6-(FNR-FNR)2 (UniProt P0A9E6)", "T1 sequence (looked up, limits assumed)": "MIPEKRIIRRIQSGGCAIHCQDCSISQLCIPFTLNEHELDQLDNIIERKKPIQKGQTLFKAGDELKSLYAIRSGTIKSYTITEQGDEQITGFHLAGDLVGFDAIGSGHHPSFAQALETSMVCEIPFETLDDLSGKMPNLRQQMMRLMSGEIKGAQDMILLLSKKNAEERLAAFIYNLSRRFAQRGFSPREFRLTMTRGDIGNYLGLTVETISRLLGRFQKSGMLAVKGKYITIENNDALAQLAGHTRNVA", "test": "EMSA", "conditions": "10 mM Tris pH 7.5, 1 mM EDTA, 1 mM DTT, 50 mM KCl, 50 mM MgCl2, 1 ug/ml BSA; 10 nM DNA, protein 0-240 nM; 30 min room temperature (ArcA); recombinant protein; protein details: His6; probe letters rebuilt from the primers and the genome", "note": "The exact form of at least one protein or probe is not confirmed. Protein sequences can lack the tags named with them."}
{"sequence": "GGCGCGTCTTATACTCCCACATAAGCCAGATTCAACAGCGAATACGTCTTCCCCAAATTGCCCACTTCCATACTTCCTCCTTACCAGAAATCTATCCTTAAGCTCCTTAATAACCATTTTCCTGCTAACTAAATTCATGGTTAAGGTTGCATAATGATATGCAACAAATGTATAACATTTTTCTTACCAAAAAATAAACAAAAGCGACCGACAAAAGCATTGGATTACGGCAGGAG (double strand) [kgtP promoter probe]", "values": [{"measurement": "binding result", "result": "binds"}]}
